Anti-infective test results gathered from many reports (values: NIAID ChemDB through PubChem).

Shared fields: tests in culture; organism: HIV-1

ECn: concentration that inhibits the pathogen or its effect by n%. Neighbouring rows are from separate reports.

Cc1c(OCC2CCC2)c2cc(F)ccc2[nH]c1=O ; cell line: HeLa + HeLa-MAGI ; strain: NNRTI-resistant (RT V106A) ; method: β-galactosidase ; measure: EC50 ; mutations: RT-V106A ; result: >2 µM
C=CCOc1cccc(Cc2[nH]c(=S)[nH]c(=O)c2CC)c1 ; cell line: MT-4 ; strain: RT-K103N Y181C Mutant NNRTI-resistant ; method: cytopathic effect / MTT ; measure: EC50 ; result: >20 µM
CCC(=O)c1cn(S(=O)(=O)c2ccc(CC)cc2)c2ccccc12 ; cell line: C8166 ; strain: IIIB ; method: syncytia / visual reading ; measure: EC50 ; result: 3.4 µg/mL
CC(C)C1=C2[C@H]3CC[C@@H]4[C@@]5(C)CC[C@H](OC(=O)[C@H]6C[C@@H](C(=O)O)C6(C)C)C(C)(C)[C@@H]5CC[C@@]4(C)[C@]3(C)CC[C@@]2([C@@H](O)CN(CCN(C)C)Cc2ccncn2)CC1=O ; cell line: MT-2 ; strain: 92HT599 ; method: p24 / ELISA ; measure: EC50 ; result: <1 µM
Cc1cc(C)cc(S(=O)(=O)c2c(C(=O)NCCP(=O)(O)O)[nH]c3ccc(Cl)cc23)c1 ; cell line: MT-4 ; strain: RES056 ; method: MTT ; measure: EC50 ; result: >265 µM
CCC(=O)c1cn(S(=O)(=O)c2ccc(Cl)cc2)c2ccccc12 ; cell line: C8166 ; strain: IIIB ; method: syncytia / visual reading ; measure: EC50 ; result: 73 µg/mL
O=C1Nc2ccc(Cl)cc2C(C#Cc2ccco2)(C(F)(F)F)O1 ; measure: EC50 ; result: <0.0038 µM
O=C(NCc1ccc(F)cc1F)c1cn2c(c(O)c1=O)C(=O)N1C3CC(COC1C2)C3 ; conditions: 100% human serum ; cell line: MT-4 ; strain: NL4-3 ; method: GFP ; measure: EC50 ; result: 0.086 µM
CCOCn1c(Cc2ccccc2)c(C(C)C)c(=O)[nH]c1=O ; cell line: MT-4 ; strain: RT-Y181C Mutant NNRTI-resistant ; method: cytopathic effect / MTT ; measure: EC50 ; result: 20 µM
CC(C)C1=C2[C@H]3CC[C@@H]4[C@@]5(C)CC[C@H](OC(=O)[C@H]6C[C@@H](C(=O)O)C6(C)C)C(C)(C)[C@@H]5CC[C@@]4(C)[C@]3(C)CC[C@@]2(CCNCCN2CCOCC2)CC1=O ; cell line: MT-2 ; strain: 92HT599 ; method: p24 / ELISA ; measure: EC50 ; result: <1 µM
Cc1cc(C)cc(S(=O)(=O)c2c(C(=O)NS(=O)(=O)c3ccc(F)cc3F)[nH]c3ccc(Cl)cc23)c1 ; cell line: MT-4 ; method: MTT ; measure: EC50 ; mutations: L100I ; result: 2.17 µM
C=CCOc1cccc(Cc2nc(SC)[nH]c(=O)c2CC)c1 ; cell line: MT-4 ; strain: IIIB ; method: cytopathic effect / MTT ; measure: EC50 ; result: >80 µM
CC(=O)NCNC(=O)CC(N)CCCN ; cell line: MT-4 ; strain: IIIB ; method: cytopathic effect / MTT ; measure: EC50 ; result: >100 µg/mL
CCOCn1c(Cc2cccc(CCC=O)c2)c(CC)c(=O)[nH]c1=O ; cell line: MT-4 ; strain: RT-Y181C Mutant NNRTI-resistant ; method: cytopathic effect / MTT ; measure: EC50 ; result: 51 µM
Cc1ccc(C(=O)NC(C)(C)C(=O)NC[C@H](O)[C@@]23CC[C@]4(C)[C@H](CC[C@@H]5[C@@]6(C)CC[C@H](OC(=O)[C@H]7C[C@@H](C(=O)O)C7(C)C)C(C)(C)[C@@H]6CC[C@]54C)C2=C(C(C)C)C(=O)C3)cn1 ; cell line: MT-2 ; strain: 92HT599 ; method: p24 / ELISA ; measure: EC50 ; result: <1 µM
O=S(=O)(c1cccc2cnccc12)N1CCNCC1 ; cell line: OM-10.1 ; strain: IIIB ; method: p24 / ELISA ; measure: EC50 ; result: 1.26 µg/mL
CC(C)C1=C2[C@H]3CC[C@@H]4[C@@]5(C)CC[C@H](OC(=O)[C@H]6C[C@@H](C(=O)O)C6(C)C)C(C)(C)[C@@H]5CC[C@@]4(C)[C@]3(C)CC[C@@]2(CCNCC(C)(C)NC(=O)CN2CCCCC2)CC1=O ; cell line: MT-2 ; strain: 92HT599 ; method: p24 / ELISA ; measure: EC50 ; result: <1 µM
C=CCOc1cccc(Cc2c(CC)c(=O)n(COCC)c(=O)n2COCC)c1 ; cell line: MT-4 ; strain: RT-K103N Y181C Mutant NNRTI-resistant ; method: cytopathic effect / MTT ; measure: EC50 ; result: >20 µM
CCCCCCCCCCCCCCNC(=O)C(CO[C@@H]1O[C@H](CO)[C@H](O)[C@H](O)[C@H]1O)NC(=O)CC(=O)NCCS(=O)(=O)O ; cell line: MT-4 ; strain: IIIB ; method: cytopathic effect / MTT ; measure: EC50 ; result: >100 µM
O=C1Nc2ccc(Cl)cc2C(C#Cc2cccnc2)(C(F)(F)F)O1 ; measure: EC50 ; mutations: RT-K103N ; result: <1.11 µM
C=CCCc1cccc(Cc2c(CC)c(=O)n(COCC)c(=O)n2COCC)c1 ; cell line: MT-4 ; strain: RT-K103N Y181C Mutant NNRTI-resistant ; method: cytopathic effect / MTT ; measure: EC50 ; result: >45 µM
C/C=C\COC1(C(F)(F)F)OC(=O)Nc2ccc(Cl)cc21 ; measure: EC50 ; result: <0.00435 µM
Cc1cc(C)cc(S(=O)(=O)c2c(C(=O)NS(=O)(=O)C(F)(F)F)[nH]c3ccc(Cl)cc23)c1 ; cell line: MT-4 ; method: MTT ; measure: EC50 ; mutations: Y188L ; result: >253 µM
CCOCn1c(Cc2cccc(OCC3CO3)c2)c(CC)c(=O)[nH]c1=O ; cell line: MT-4 ; strain: RT-Y181C Mutant NNRTI-resistant ; method: cytopathic effect / MTT ; measure: EC50 ; result: >80 µM
CC(C)C1=C2[C@H]3CC[C@@H]4[C@@]5(C)CC[C@H](OC(=O)[C@H]6C[C@@H](C(=O)O)C6(C)C)C(C)(C)[C@@H]5CC[C@@]4(C)[C@]3(C)CC[C@@]2(CCNCc2ccc3ccccc3n2)CC1=O ; cell line: MT-2 ; strain: 92HT599 ; method: p24 / ELISA ; measure: EC50 ; result: <1 µM
CCC(=O)c1cn(S(=O)(=O)c2ccc(C)cc2)c2ccc(C#N)cc12 ; cell line: C8166 ; strain: IIIB ; method: syncytia / visual reading ; measure: EC50 ; result: >200 µg/mL
CCCS(=O)(=O)NC(=O)c1[nH]c2ccc(Cl)cc2c1S(=O)(=O)c1cc(C)cc(C)c1 ; cell line: MT-4 ; method: MTT ; measure: EC50 ; mutations: E138K ; result: 0.92 µM
Cn1c2ccccc2c(=O)c2c(O)cccc21 ; cell line: CEM ; strain: IIIB ; method: cytopathic effect / MTT ; measure: EC50 ; result: >5.6 µg/mL
CCC(=O)c1cn(S(=O)(=O)c2ccc(OC)cc2)c2ccccc12 ; cell line: C8166 ; strain: IIIB ; method: syncytia / visual reading ; measure: EC50 ; result: 0.8 µg/mL
CCCc1c(OC2CCCCC2)c2cc(Cl)ccc2[nH]c1=O ; cell line: HeLa + HeLa-MAGI ; strain: NNRTI-resistant (RT K103N V108I) ; method: β-galactosidase ; measure: EC50 ; mutations: RT-K103N V108I ; result: >2 µM
CC(C)C1=C2[C@H]3CC[C@@H]4[C@@]5(C)CC[C@H](OC(=O)[C@H]6C[C@@H](C(=O)O)C6(C)C)C(C)(C)[C@@H]5CC[C@@]4(C)[C@]3(C)CC[C@@]2([C@@H](O)CNC(=O)C(C)(C)NC(=O)c2ccccn2)CC1=O ; cell line: MT-2 ; strain: 92HT599 ; method: p24 / ELISA ; measure: EC50 ; result: <1 µM
Cc1cc(C)cc(S(=O)(=O)c2c(C(=O)NS(=O)(=O)c3ccccc3)[nH]c3ccc(Cl)cc23)c1 ; cell line: MT-4 ; method: MTT ; measure: EC50 ; mutations: L100I ; result: 6.81 µM
O=C1Nc2ccc(F)cc2C(C#Cc2ccco2)(C(F)(F)F)O1 ; measure: EC90 ; mutations: RT-K103N ; result: 0.3293 µM
CCCCCCCCCCCCCC(=O)NCC(C(=O)CCCCCCCCCCCCC)C(=O)NCCNC(=O)C(O)C(O[C@@H]1O[C@H](CO)[C@H](O)[C@H](O)[C@H]1O)C(O)CO ; cell line: CEM + CEM-SS ; strain: LAI ; method: cytopathic effect / MTT ; measure: EC50 ; result: >100 µM
O=C1Nc2ccc(Cl)cc2C(C#Cc2cncs2)(C(F)(F)F)O1 ; measure: EC90 ; mutations: RT-K103N ; result: 0.1062 µM
C=CCOc1cccc(Cc2[nH]c(=O)[nH]c(=O)c2CC)c1 ; cell line: MT-4 ; strain: RT-K103N Y181C Mutant NNRTI-resistant ; method: cytopathic effect / MTT ; measure: EC50 ; result: >20 µM
CCCCCCCCCC[N+](C)(C)CCCNCc1c(O)cc2c(c1O)-c1cc(ccc1O)[C@H]1NC(=O)[C@@H]3NC(=O)C4NC(=O)[C@@H](Cc5ccc(c(Cl)c5)Oc5cc3cc(c5O)Oc3ccc(cc3Cl)[C@@H](O)[C@H](NC1=O)C(=O)N[C@@H]2C(=O)O)NC(=O)[C@H](N)c1ccc(O)c(c1)Oc1cc(O)cc4c1 ; cell line: CEM ; strain: IIIB ; method: syncytia ; measure: EC50 ; result: 2.8 µM
O=C(O)CCCCCCCCCCCCCNC(=O)C(CO[C@@H]1O[C@H](CO)[C@H](O)[C@H](O)[C@H]1O)NC(=O)CCCCCCCCCCC(=O)O ; cell line: MT-4 ; strain: IIIB ; method: cytopathic effect / MTT ; measure: EC50 ; result: >100 µM
COc1ccc2[nH]c3ccccc3c(=O)c2c1OC ; cell line: OM-10.1 ; strain: IIIB ; method: p24 / ELISA ; measure: EC50 ; result: >32 µg/mL
NC(N)=NCCC[C@H](N)C(=O)NC[C@@H]1OC(O[C@H]2[C@@H](O)[C@H](O[C@@H]3[C@@H](O)[C@H](NC(=O)[C@@H](N)CCCN=C(N)N)C[C@H](NC(=O)[C@@H](N)CCCN=C(N)N)[C@H]3O[C@H]3O[C@H](CNC(=O)[C@@H](N)CCCN=C(N)N)[C@@H](O)[C@H](O)[C@H]3NC(=O)[C@@H](N)CCCN=C(N)N)O[C@@H]2CO)[C@H](NC(=O)[C@@H](N)CCCN=C(N)N)[C@@H](O)[C@@H]1O ; cell line: MT-2 ; strain: IIIB ; method: p24 / RT activity ; measure: EC50 ; mutations: UC781-resistant ; result: 1.7 µM
NCCC[C@@H](N)CC(=O)NCN ; cell line: MT-4 ; strain: IIIB ; method: cytopathic effect / MTT ; measure: EC50 ; result: >100 µg/mL
N#Cc1cc(Cl)cc(Oc2c(Br)ccc(CC(=O)Nc3ccc(S(N)(=O)=O)cc3Cl)c2F)c1 ; cell line: MT-4 ; measure: EC50 ; mutations: L100I V106I E138K Y188L ; result: >0.4 µM